Tested on: surface nucleolin
Test: HIV-1 LAI entry into HeLa-CD4-LTR-LacZ cells (β-galactosidase): function of surface nucleolin
Format: cell-based, human
Conditions: 0.05-0.8 μM, β-galactosidase at 48 h post-infection
Description: Surface nucleolin serves as a low affinity receptor implicated in the binding and entry of HIV-1 particles into permissive cells. Consequently, HB-19 treatment of cells prevents HIV binding to cells and thus HIV entry and infection. Here HIV-1 LAI entry was monitored in HeLa-CD4-LTR-LacZ cells containing the bacterial lacZ gene under the control of HIV-1 LTR. Virus entry and replication result in trans-activation of HIV-1 LTR by the viral Tat protein, leading to the expression of β-galactosidase. At 48 h post-infection, cell monolayers are lysed in a phosphate buffer containing Nonidet P-40 (Sigma) (1%; v ⁄ v) and assayed for β-galactosidase activity by measuring optical density at 570 nm.
Figure 2 HB-19 and related Nucant pseudopeptides antagonize surface nucleolin and trigger its down regulation. A. Multivalent pseudopeptides block the biological function of surface nucleolin for HIV entry. […] At 48 h post-infection, the β-galactosidase activity was measured in cell extracts directly to monitor HIV entry (Methods). The abscissa gives % Activity of surface nucleolin calculated from the optical density measurements at 570 nm. […] Cytoplasmic (containing cytoplasmic as well as surface nucleolin) and nuclear extracts were analyzed by immunoblotting using mAb D3 as described (Methods)(panels Surface/cytoplasmic NCL, Nuclear NCL). […]

## CC(=O)N[C@@H](CCCCNC(=O)[C@H](CCCNC(=N)N)NC(=O)[C@@H]1CCCN1C[C@@H](N)CCCCN)C(=O)NC(C)(C)C(=O)NCC(=O)N[C@@H](CCCCNC(=O)[C@H](CCCNC(=N)N)NC(=O)[C@@H]1CCCN1C[C@@H](N)CCCCN)C(=O)NC(C)(C)C(=O)NCC(=O)N[C@@H](CCCCNC(=O)[C@H](CCCNC(=N)N)NC(=O)[C@@H]1CCCN1C[C@@H](N)CCCCN)C(=O)NC(C)(C)C(=O)NCC(=O)N[C@@H](CCCCNC(=O)[C@H](CCCNC(=N)N)NC(=O)[C@@H]1CCCN1C[C@@H](N)CCCCN)C(=O)NC(C)(C)C(=O)NCC(=O)N[C@@H](CCCCNC(=O)[C@H](CCCNC(=N)N)NC(=O)[C@@H]1CCCN1C[C@@H](N)CCCCN)C(=O)NC(C)(C)C(=O)NCC(=O)N[C@@H](CCCCNC(=O)[C@H](CCCNC(=N)N)NC(=O)[C@@H]1CCCN1C[C@@H](N)CCCCN)C(=O)NC(C)(C)C(=O)NCC(N)=O [Nucant N6L]
  inhibitory activity on HIV-1 entry, fold more active compared to the pentavalent constructs N3 and HB-19: ≥ 4 fold
